From patent US20200024639A1 come the findings set out here.

The experiment addresses HA-NanoLuc-VAMP2 (UniProt P63027). The experiment in a line: cell-based or functional assay.

Turning to “botulinum neurotoxin type D (from UniProt P19321 2-1276) (enzyme)”, the cleavage of the reporter in SiMa cells, immunoblot with total VAMP2 antibody was 10 nM.
